Values after ≈ are worked out from the molar mass of the structure shown.
Tests used:
Type in all cases: functional
Mycobacterium avium [1] = experiment: Antimycobacterial activity against Mycobacterium avium My 330/88 after 14 days by micromethod
[2] = test system: Mycobacterium tuberculosis; experiment: Antimycobacterial activity against Mycobacterium tuberculosis My 331/88 after 21 days by micromethod
[3] = test system: Mycobacterium tuberculosis; experiment: Antimycobacterial activity against Mycobacterium tuberculosis My 331/88 after 14 days by micromethod
Mycobacterium kansasii [4] = experiment: Antimycobacterial activity against Mycobacterium kansasii 6509/96 after 7 days by micromethod
Mycobacterium kansasii [5] = experiment: Antimycobacterial activity against Mycobacterium kansasii 6509/96 after 14 days by micromethod
Mycobacterium kansasii [6] = experiment: Antimycobacterial activity against Mycobacterium kansasii My 235/80 after 21 days by micromethod
Mycobacterium kansasii [7] = experiment: Antimycobacterial activity against Mycobacterium kansasii My 235/80 after 7 days by micromethod
Mycobacterium avium [8] = experiment: Antimycobacterial activity against Mycobacterium avium My 330/88 after 21 days by micromethod
Mycobacterium kansasii [9] = experiment: Antimycobacterial activity against Mycobacterium kansasii My 235/80 after 14 days by micromethod
Mycobacterium kansasii [10] = experiment: Antimycobacterial activity against Mycobacterium kansasii 6509/96 after 21 days by micromethod

Structure (SMILES) | MIC (Mycobacterium avium [1]) | MIC [2] | MIC [3] | MIC (Mycobacterium kansasii [4]) | MIC (Mycobacterium kansasii [5]) | MIC (Mycobacterium kansasii [6]) | MIC (Mycobacterium kansasii [7]) | MIC (Mycobacterium avium [8]) | MIC (Mycobacterium kansasii [9]) | MIC (Mycobacterium kansasii [10])
O=[N+]([O-])c1ccc(Cn2nnnc2[Se]Cc2cc([N+](=O)[O-])cc([N+](=O)[O-])c2)cc1 | 125 µM (≈ 58 µg/mL) | 4 µM (≈ 1.86 µg/mL) | 2 µM (≈ 0.929 µg/mL) | 4 µM (≈ 1.86 µg/mL) | 8 µM (≈ 3.71 µg/mL) | 32 µM (≈ 14.9 µg/mL) | 4 µM (≈ 1.86 µg/mL) | 125 µM (≈ 58 µg/mL) | 16 µM (≈ 7.43 µg/mL) | 16 µM (≈ 7.43 µg/mL)
O=[N+]([O-])c1cc(Cn2nnc([Se]Cc3ccc([N+](=O)[O-])cc3[N+](=O)[O-])n2)cc([N+](=O)[O-])c1 | 250 µM (≈ 127 µg/mL) | 16 µM (≈ 8.15 µg/mL) | 16 µM (≈ 8.15 µg/mL) | 16 µM (≈ 8.15 µg/mL) | 32 µM (≈ 16.3 µg/mL) | 32 µM (≈ 16.3 µg/mL) | 8 µM (≈ 4.07 µg/mL) | 250 µM (≈ 127 µg/mL) | 16 µM (≈ 8.15 µg/mL) | 62 µM (≈ 31.6 µg/mL)
O=[N+]([O-])c1cc(C[Se]c2nnnn2Cc2ccc([N+](=O)[O-])cc2[N+](=O)[O-])cc([N+](=O)[O-])c1 | 125 µM (≈ 63.7 µg/mL) | 8 µM (≈ 4.07 µg/mL) | 4 µM (≈ 2.04 µg/mL) | 4 µM (≈ 2.04 µg/mL) | 16 µM (≈ 8.15 µg/mL) | 62 µM (≈ 31.6 µg/mL) | 8 µM (≈ 4.07 µg/mL) | 125 µM (≈ 63.7 µg/mL) | 32 µM (≈ 16.3 µg/mL) | 32 µM (≈ 16.3 µg/mL)
O=[N+]([O-])c1ccc(CSc2nnn(Cc3cc([N+](=O)[O-])cc([N+](=O)[O-])c3)n2)cc1 | 250 µM (≈ 104 µg/mL) | 8 µM (≈ 3.34 µg/mL) | 8 µM (≈ 3.34 µg/mL) | 16 µM (≈ 6.68 µg/mL) | 16 µM (≈ 6.68 µg/mL) | 16 µM (≈ 6.68 µg/mL) | 4 µM (≈ 1.67 µg/mL) | 250 µM (≈ 104 µg/mL) | 8 µM (≈ 3.34 µg/mL) | 32 µM (≈ 13.4 µg/mL)
O=[N+]([O-])c1ccc(C[Se]c2nnnn2Cc2ccc([N+](=O)[O-])cc2[N+](=O)[O-])c([N+](=O)[O-])c1 | 32 µM (≈ 16.3 µg/mL) | 16 µM (≈ 8.15 µg/mL) | 8 µM (≈ 4.07 µg/mL) | 32 µM (≈ 16.3 µg/mL) | 62 µM (≈ 31.6 µg/mL) | 62 µM (≈ 31.6 µg/mL) | 32 µM (≈ 16.3 µg/mL) | 32 µM (≈ 16.3 µg/mL) | 62 µM (≈ 31.6 µg/mL) | 62 µM (≈ 31.6 µg/mL)
O=[N+]([O-])c1ccc(Cn2nnc(SCc3cc([N+](=O)[O-])cc([N+](=O)[O-])c3)n2)cc1 | 250 µM (≈ 104 µg/mL) | 2 µM (≈ 0.835 µg/mL) | 1 µM (≈ 0.417 µg/mL) | 2 µM (≈ 0.835 µg/mL) | 8 µM (≈ 3.34 µg/mL) | 4 µM (≈ 1.67 µg/mL) | 2 µM (≈ 0.835 µg/mL) | 250 µM (≈ 104 µg/mL) | 2 µM (≈ 0.835 µg/mL) | 8 µM (≈ 3.34 µg/mL)
O=[N+]([O-])c1cc(CSc2nnnn2Cc2cc([N+](=O)[O-])cc([N+](=O)[O-])c2)cc([N+](=O)[O-])c1 | 250 µM (≈ 116 µg/mL) | 8 µM (≈ 3.7 µg/mL) | 4 µM (≈ 1.85 µg/mL) | 8 µM (≈ 3.7 µg/mL) | 16 µM (≈ 7.4 µg/mL) | 8 µM (≈ 3.7 µg/mL) | 4 µM (≈ 1.85 µg/mL) | 250 µM (≈ 116 µg/mL) | 8 µM (≈ 3.7 µg/mL) | 32 µM (≈ 14.8 µg/mL)
O=[N+]([O-])c1ccc(Cn2nnnc2SCc2ccc([N+](=O)[O-])cc2[N+](=O)[O-])cc1 | 62 µM (≈ 25.9 µg/mL) | 4 µM (≈ 1.67 µg/mL) | 4 µM (≈ 1.67 µg/mL) | 32 µM (≈ 13.4 µg/mL) | 62 µM (≈ 25.9 µg/mL) | 62 µM (≈ 25.9 µg/mL) | 32 µM (≈ 13.4 µg/mL) | 62 µM (≈ 25.9 µg/mL) | 62 µM (≈ 25.9 µg/mL) | 62 µM (≈ 25.9 µg/mL)
O=[N+]([O-])c1ccc(C[Se]c2nnn(Cc3cc([N+](=O)[O-])cc([N+](=O)[O-])c3)n2)cc1 | 250 µM (≈ 116 µg/mL) | 32 µM (≈ 14.9 µg/mL) | 32 µM (≈ 14.9 µg/mL) | 32 µM (≈ 14.9 µg/mL) | 62 µM (≈ 28.8 µg/mL) | 62 µM (≈ 28.8 µg/mL) | 32 µM (≈ 14.9 µg/mL) | 250 µM (≈ 116 µg/mL) | 62 µM (≈ 28.8 µg/mL) | 62 µM (≈ 28.8 µg/mL)
O=[N+]([O-])c1ccc(Cn2nnnc2[Se]Cc2ccc([N+](=O)[O-])cc2[N+](=O)[O-])cc1 | 62 µM (≈ 28.8 µg/mL) | 16 µM (≈ 7.43 µg/mL) | 16 µM (≈ 7.43 µg/mL) | 32 µM (≈ 14.9 µg/mL) | 62 µM (≈ 28.8 µg/mL) | 32 µM (≈ 14.9 µg/mL) | 16 µM (≈ 7.43 µg/mL) | 62 µM (≈ 28.8 µg/mL) | 32 µM (≈ 14.9 µg/mL) | 62 µM (≈ 28.8 µg/mL)
O=[N+]([O-])c1ccc(Cn2nnc([Se]Cc3cc([N+](=O)[O-])cc([N+](=O)[O-])c3)n2)cc1 | 125 µM (≈ 58 µg/mL) | 1 µM (≈ 0.464 µg/mL) | 1 µM (≈ 0.464 µg/mL) | 2 µM (≈ 0.929 µg/mL) | 4 µM (≈ 1.86 µg/mL) | 4 µM (≈ 1.86 µg/mL) | 1 µM (≈ 0.464 µg/mL) | 125 µM (≈ 58 µg/mL) | 2 µM (≈ 0.929 µg/mL) | 4 µM (≈ 1.86 µg/mL)
O=[N+]([O-])c1cc(C[Se]c2nnn(Cc3ccc([N+](=O)[O-])cc3[N+](=O)[O-])n2)cc([N+](=O)[O-])c1 | 125 µM (≈ 63.7 µg/mL) | 2 µM (≈ 1.02 µg/mL) | 2 µM (≈ 1.02 µg/mL) | 2 µM (≈ 1.02 µg/mL) | 8 µM (≈ 4.07 µg/mL) | 16 µM (≈ 8.15 µg/mL) | 4 µM (≈ 2.04 µg/mL) | 125 µM (≈ 63.7 µg/mL) | 8 µM (≈ 4.07 µg/mL) | 16 µM (≈ 8.15 µg/mL)
